# Measured values from the supplement of paper PMC12637763.
# Substitutions are numbered along the chain they refer to. The list shows a part of the results. Env chains of viruses from a treatment-interruption trial, translated from the printed DNA. IC50 / IC80 of two broadly neutralizing antibodies; lower = more sensitive virus; >50 µg/ml means not reached and <0.001 µg/ml is below the lowest dose. No active / inactive call.
# B1: HIV-1 Env, rebound clone, antibody arm (protein)
# chain: MKVMEIRKHSWRWGILFLGMLMICSAEDLWVTIYYGVPVWKEANTTLFCASDAKAYSTEKHNVWATHACVPTDPNPQEQNLVNVTEDFNMWKNNMVEQMHEDIISLWDQSLKPCVKLTPLCVTLECTDLRNATNTTATNTNNSLRDEGDMKNCSFNITTDRRDKVKKEYATFYNLDIVQIKEESNGNDSKIYRLVSCNTSVITQACPKISFEPIPIHYCAPAGFAILKCNDTDFNGIGTCRNVSIVQCTHGIRPVVSTQLLLNGSLAEKEVVIKSANFTDNTKTIIVQLKDPVEINCTRPNNNTRKGIHMGPGKAFYTVGQVIGDIRKAYCNIRWKKWNNTLGQIAKKLHDQYEMHNITFNRSSGGDPEIVTHSFNCGGEFFYCDTSGLFNSTWINGNWTNGTRIDTEGLNNGTFTLPCRIKQIINTWQEVGKAMYAPPIAGIIKCSTNITGLLLTRDGVNNSGHETFRPGGGDMRDNWRSELYKYKVVKLEPIGLAPTKAKRRVVQREKRAIGGIGALFLGFLGAAGSTMGAASLTLTVQARQLLSGIVQQQNNLLRAVEAQQHLLQLTVWGIKQLQARLLAVERFLHDQQLLGIWGCSGRLICTTAVPWNTSWSNKTLDRIWGNMTWMQWEREIENYTGLIYNLIEESQNQQENNEKELLALDKWANLWNWFDITKWLWYIKIFIMIVGGLIGVRIIFAVLSIVNRVRQGYSPLSFQTRLPTQRGPDRPEGIEEEGGERERDTSGSLATRLLAIIWIDLRSLCLFSYHRLRDLLLIAARIVELLGRRGWEILRYWWSLLQYWTQELKNSAVSLLNTTAVVVAEGTDRIIEAAQRAFRAFLNIPRRIRQGLERALL
# B2: HIV-1 Env, rebound clone, antibody arm (protein)
# chain: MRVRGMRKNWQDLWRWGIMLLGMLMICNATKNSWVTVYYGVPVWKEASTTLFCASDAKAYDTEVHNVWATHACVPTDPSPQEIKLENVTEEFNMWKNNMVEQMHEDIISLWDQSLKPCVKLTPLCVTLNCTEVVQNNTRQNNTIGEIKNCSFQVSTNLQDKTHKEYALFYKLDIVQLNKSDNISYRLISCNTSDLRQACPKVSFEPIPIHYCAPAGFAILKCNDTRFSGKGTCKNVTTIQCTHGIRPVVSTQLLLNGSLAEEGVVIRSDNISDNTKTIIVQLSKAVKINCTRPNNNTRKGIHIGPGRAFYATGKIIGDIRQAHCDLSGAEWNNTLSQIFEELKKEFKNKTIAFNQSSGGDLEIVLHSFNCGGEFFYCNTSKLFNSTWNSTWNNNSTRNNSEYTITLPCRIRQIINLWQEVGKAMYAPPIEGQIRCSSNITGLLLTRDGGDTNSTTEVFRPGGGNMKDNWRSELYKYKVVKIEPLGVAPTRAKRRVVQREKRAVGIGALFLGFLGAAGSTMGAASMTLTVQARQLLSGIVQQQNNLLRAIEAQQHLLQLTVWGIKQLQARVLAVERYLKDQQLLGIWGCSGKLICTTAVPWNTSWSNKSLDDIWNNMTWMQWEKEIDNYTGLIYSLIEKSQNQQEKNEKDLLELDKWASLWTWFDITNWLWYIRIFIMIVGGLVGLRIVFVVLSVVNRVRKGYSPLSFQTHHPVPGGPDRPAGIGEEGGDKDRDGSTRLVDGFLAIIWVDLRSLFLFSYHRLRDLLLIVTRIVELLGRRGWEALKYWWNLLQYWSQELKKSAVSLYDTIAIAVAEGTDRIIEAIQGTCRAILHIPRRIRQGLERLLL
# B3: HIV-1 Env, rebound clone, antibody arm (protein)
# chain: B2 chain with N614K, L631V
# B4: HIV-1 Env, rebound clone, antibody arm (protein)
# chain: B2 chain with E345K
# B5: HIV-1 Env, rebound clone, antibody arm (protein)
# chain: B2 chain with V698G
# B6: HIV-1 Env, rebound clone, antibody arm (protein)
# chain: B2 chain with V495M, F675V
# How the values were obtained:
# antibody 10-1074 [1] = assay: neutralization IC50; higher = virus less sensitive to the antibody
# Experimental: (§1)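 Pseudovirus bearing the Env chain mixed with antibody, from 50 µg/ml in fivefold dilutions, on TZM-bl reporter cells, in duplicate.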
# antibody 3BNC117 [2] = assay: as above
# Experimental: as §1
# antibody 10-1074 [3] = assay: neutralization IC80; higher = virus less sensitive to the antibody
# Experimental: as §1
# antibody 3BNC117 [4] = assay: as above
# Experimental: as §1
Binder,neutralization IC50 (antibody 10-1074 [1]) [µg/mL],neutralization IC50 (antibody 3BNC117 [2]) [µg/mL],neutralization IC80 (antibody 10-1074 [3]) [µg/mL],neutralization IC80 (antibody 3BNC117 [4]) [µg/mL]
B1,> 50,0.122,> 50,0.517
B2,> 50,0.019,> 50,0.052
B3,> 50,0.034,> 50,0.093
B4,> 50,0.028,> 50,0.076
B5,> 50,0.027,> 50,0.093
B6,> 50,0.129,> 50,0.711
